Data reported in US20250283886.

Tested on: MetTyr

In the case of P. falciparum M1 aminopeptidase, the “HPLC Assay Conv; 1 mM peptide, 1 mM enzyme, 30 C/1 hr” value is reported as 7%.
